Data as given in patent publication US20130023496A1, “Combination Therapy Comprising A CCR5 Antagonist, A HIV-1 Protease Inhibtior and a Pharmacokinetic Enhancer” (priority 2010, published 2013).

Test system: CCR5-tropic HIV
Assay: Randomized controlled study of atazanavir/ritonavir QD with maraviroc or Truvada in treatment-naïve patients, 24 weeks
Format: in vivo, human
Conditions: number per arm (60 maraviroc, 61 Truvada)
Text: To ascertain whether a once daily, nucleoside-sparing regimen using a CCR5 antagonist could be safely and efficaciously administered to HIV-positive patients infected with CCR5-tropic HIV, a randomized, controlled study is being conducted.

Question: With “N-{(1S)-3-[3-(3-isopropyl-5-methyl-4H-1,2,4-triazol-4-yl)-exo-8-azabicyclo[3.2.1]oct-8-yl]-1-phenylpropyl}-4, 4-difluorocyclohexanecarboxamide [maraviroc]” as the substance, how does the discontinuations read?
Answer: 4
